Consider 99 molecules from PubChem BioAssay AID602123 (The Scripps Research Institute Molecular Screening Center, 2011).

Chains of the proteins cited; added tags and fusions are not shown.
UniProt P0A9M0, whole entry: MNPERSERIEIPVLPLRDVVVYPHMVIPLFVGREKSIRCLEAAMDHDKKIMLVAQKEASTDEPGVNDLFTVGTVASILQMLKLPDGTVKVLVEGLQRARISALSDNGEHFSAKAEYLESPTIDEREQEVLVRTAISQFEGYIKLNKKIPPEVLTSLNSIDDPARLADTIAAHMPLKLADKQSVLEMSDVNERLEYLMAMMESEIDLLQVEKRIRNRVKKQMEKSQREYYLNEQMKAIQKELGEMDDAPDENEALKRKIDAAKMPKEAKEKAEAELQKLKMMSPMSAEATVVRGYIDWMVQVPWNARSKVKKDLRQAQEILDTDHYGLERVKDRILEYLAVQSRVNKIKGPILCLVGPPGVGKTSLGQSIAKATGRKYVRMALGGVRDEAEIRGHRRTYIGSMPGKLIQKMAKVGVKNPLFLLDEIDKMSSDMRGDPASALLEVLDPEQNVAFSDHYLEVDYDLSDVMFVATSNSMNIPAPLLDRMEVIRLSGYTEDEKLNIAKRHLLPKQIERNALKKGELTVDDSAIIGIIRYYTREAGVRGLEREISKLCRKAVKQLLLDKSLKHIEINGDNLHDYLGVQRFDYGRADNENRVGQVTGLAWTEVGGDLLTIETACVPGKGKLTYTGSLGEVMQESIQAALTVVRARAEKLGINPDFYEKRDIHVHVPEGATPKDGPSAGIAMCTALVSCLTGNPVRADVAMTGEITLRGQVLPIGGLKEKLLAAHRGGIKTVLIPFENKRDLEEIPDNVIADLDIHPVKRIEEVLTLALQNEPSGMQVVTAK

Only a part is listed here, and it is no random draw. Some structures show a salt or complex split into parts, the way the source records it. Activity calls are given as the source filed them. No stated cut-off is given here; in the data, active means inhibition above about 13% (passing the limit was not always enough); inactive means the rest.

For this test, the target named is Lon protease (Escherichia coli (strain K12)) (UniProt P0A9M0). Put plainly: inhibitors of E. coli Lon protease, primary screen, biochemical, fluorescence polarization (AID 602123).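 Further: 0% = enzyme with probe and DMSO and 100% = no enzyme.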 The settings on record: purified E. coli Lon protease, at 7.94 µM, stronger effect = higher value. For orientation: Fluorescence polarisation rises when a labelled molecule tumbles more slowly, as on binding a larger partner.
As usually defined, the inhibition is the drop in the measured response relative to a control, in per cent. For `COc1ccccc1OP(C)(=O)Nc1ccccc1` (centres undefined), the inhibition is inactive: 2.72%.
For `CP(=O)(Nc1ccccc1Br)Oc1ccccc1` (centres undefined), the inhibition was inactive: -12.9%.
For `CP(=S)(Nn1cnnc1)Oc1ccccc1` (centres undefined) the value was inactive: -5.88%; for `CCc1ccc(OP(C)(=O)N2CCN(c3ccc([N+](=O)[O-])cc3)CC2)cc1` (centres undefined), inactive: 3.65%.
The result for `CP(=O)(NC(=O)Nc1ccccc1)Oc1ccccc1` (centres undefined) reads inactive: -4.22%; that for `Cc1cc(C)cc(OP(C)(=O)Nc2ccc(SC(F)(F)F)cc2)c1` (centres undefined), inactive: 2.64%; that for `Cc1ccc(Nc2c([N+](=O)[O-])cc([N+](=O)[O-])cc2[N+](=O)[O-])cc1`, inactive: -4.48%.
For `Cc1cccc(C)c1OP(C)(=O)Nc1ccc(SC(F)(F)F)cc1` (centres undefined) the value was inactive: 0.44%; for `CP(=O)(Nc1ccc(SC(F)(F)F)cc1)Oc1ccc(Cl)cc1` (centres undefined), inactive: 9.29%; for `CP(=O)(Oc1ccccc1)OC(c1ccccc1)C(F)(F)F` (centres undefined), inactive: -6.61%.
Take `CP(=O)(Nc1ccccn1)Oc1ccc(Cl)cc1` (centres undefined): the inhibition is inactive: -4.44%.
The result for `CCOP(C)(=S)SCC(=O)NC(C)C(=O)O` (centres undefined) reads inactive: 2.93%; that for `CCOC(=O)c1ccc(NP(C)(=O)Oc2ccc(OC)cc2)cc1` (centres undefined), inactive: -14.2%.
For `O=[N+]([O-])c1cc([N+](=O)[O-])c(O)c([N+](=O)[O-])c1.c1ccc(Oc2ccncc2)cc1` the value was inactive: 0.05%; for `CCN(CC)CCCOC(=O)C(O)(c1ccccc1)c1ccccc1`, inactive: -6.58%.
For `COc1ccccc1-c1ccccn1.O=[N+]([O-])c1cc([N+](=O)[O-])c(O)c([N+](=O)[O-])c1` the value was inactive: -6.64%; for `CC(C)(C)c1ccc(OP(C)(=O)Nc2ccc(SC(F)(F)F)cc2)cc1` (centres undefined), inactive: -5.71%; for `Cc1cccc(C)c1OP(C)(N)=O` (centres undefined), inactive: 5.04%.
Take `O=[N+]([O-])c1ccc2c(c1)C=Nc1ccccc1O2`: the inhibition is inactive: -5.19%.
The result for `O=[N+]([O-])c1cc([N+](=O)[O-])c(Nc2cccnc2)c([N+](=O)[O-])c1` reads inactive: 0.7%; that for `COc1ccccc1OP(C)(=O)Nc1cc(Cl)ccc1C` (centres undefined), inactive: 3.14%.
On to `COc1ccc(OP(C)(=O)Nc2cccc(F)c2)cc1` (centres undefined), for which the inhibition was inactive: -1.57%.
The result for `Cc1cc(C)cc(OP(C)(N)=O)c1` (centres undefined) reads inactive: 4.79%; that for `CCOC(=O)c1ccc(NP(C)(=O)Oc2ccccc2)cc1` (centres undefined), inactive: -13.3%; that for `COc1ccccc1OP(C)(=O)Nc1ccc(C)cc1` (centres undefined), inactive: -5.17%.
For `Cc1ccc(NP(C)(=O)Oc2ccccc2)c(C)c1` (centres undefined) the value was inactive: -1.77%; for `O=C(O)c1cccc(Nc2c([N+](=O)[O-])cc([N+](=O)[O-])cc2[N+](=O)[O-])c1`, inactive: -2.51%; for `CC1=NCCc2c1[nH]c1ccccc21.O=[N+]([O-])c1cc([N+](=O)[O-])c(O)c([N+](=O)[O-])c1`, inactive: -2.09%.
For `Cc1cc(C)cc(OP(C)(=O)Nc2ccc(C)cc2C)c1` (centres undefined) the value was inactive: -5.88%; for `CCOC(=O)c1ccc(NP(C)(=O)Oc2cc(C)cc(C)c2)cc1` (centres undefined), inactive: -2.51%; for `COc1ccccc1OP(C)(=O)Nc1cccc(Br)c1` (centres undefined), inactive: -4.07%.
On to `CP(=O)(Nc1cccc(Br)c1)Oc1ccccc1` (centres undefined), for which the inhibition is inactive: 0.26%.
Turning to `Cc1cc(C)cc(OP(C)(=O)Nc2ccccn2)c1` (centres undefined), the inhibition was inactive: -4.19%.
For `Cc1ccc(C)c(NP(C)(=O)Oc2ccccc2)c1` (centres undefined) the value was inactive: -6.79%; for `CN(Cc1cccnc1)C(=O)COc1ccc(Cl)c(Cl)c1.O=[N+]([O-])c1cc([N+](=O)[O-])c(O)c([N+](=O)[O-])c1`, inactive: -1.92%; for `O=[N+]([O-])c1cc([N+](=O)[O-])c(-n2nnc3ccccc32)c([N+](=O)[O-])c1`, inactive: 5.15%.
For `Cc1nc2ccc3ccccc3c2s1.O=[N+]([O-])c1cc([N+](=O)[O-])c(O)c([N+](=O)[O-])c1` the value was inactive: -0.77%; for `O=[N+]([O-])c1cc([N+](=O)[O-])c(-c2cnn(-c3ccccc3)c2)c([N+](=O)[O-])c1`, inactive: 3.64%.
The result for `O=[N+]([O-])c1cc([N+](=O)[O-])c(Nc2nnnn2CCO)c([N+](=O)[O-])c1` reads inactive: -16.1%; that for `CC1=C2N=C(C=C3N=C(C(C)=C4[N-][C@@](C)([C@@H]5N=C1[C@](C)(CCC(=O)NC[C@@H](C)OP(=O)([O-])O[C@H]1[C@@H](O)[C@@H](n6cnc7cc(C)c(C)cc76)O[C@@H]1CO)[C@H]5CC(N)=O)[C@@](C)(CC(N)=O)[C@@H]4CCC(N)=O)[C@@](C)(CC(N)=O)[C@@H]3CCC(N)=O)C(C)(C)[C@@H]2CCC(N)=O.[C-]#N.[Co+3]`, inactive: -7.31%; that for `CCOC(=O)C(CC)C1=NC(C)(C)Cc2ccccc21.O=[N+]([O-])c1cc([N+](=O)[O-])c(O)c([N+](=O)[O-])c1` (centres undefined), inactive: 5.45%.
In the case of `CP(=O)(Nc1ccc(SC(F)(F)F)cc1)Oc1ccccc1` (centres undefined), the inhibition was inactive: 2.49%.
As to `CCCOc1ccc(NP(C)(=O)Oc2ccc(Cl)cc2)cc1` (centres undefined), the inhibition was inactive: -1.31%.
Consider `COc1ccc(-c2ccccn2)cc1.O=[N+]([O-])c1cc([N+](=O)[O-])c(O)c([N+](=O)[O-])c1`, for which the inhibition was inactive: -8.36%.
For `COc1ccccc1OP(C)(=O)Nc1c(C)cccc1C` (centres undefined) the value was inactive: 8.19%.
The result for `CN1CCCCC1COC(=O)C1(O)c2ccccc2CCc2ccccc21` (centres undefined) reads inactive: 10.4%; that for `COc1ccc(NP(C)(=O)Oc2ccccc2OC)cc1` (centres undefined), inactive: -10.7%.
For `CN(C)CCOC(=O)C(O)(c1ccccc1)C1CCCCC1` (centres undefined) the value was inactive: 5.39%; for `COc1ccc(OP(C)(=O)Nc2cccc(Br)c2)cc1` (centres undefined), inactive: -0.43%; for `Cc1c(C(c2ccc3c(c2)OCO3)c2c(C)n(C)n(-c3ccccc3)c2=O)c(=O)n(-c2ccccc2)n1C.O=[N+]([O-])c1cc([N+](=O)[O-])c(O)c([N+](=O)[O-])c1`, inactive: -1.22%.
In the case of `Cc1cc(-c2cccc3ccccc23)c(C)cn1.O=[N+]([O-])c1cc([N+](=O)[O-])c(O)c([N+](=O)[O-])c1`, the inhibition is inactive: -14%.
The result for `O=[N+]([O-])c1cc([N+](=O)[O-])c(NCC2CCS(=O)(=O)C2)c([N+](=O)[O-])c1` (centres undefined) reads inactive: -7.96%.
On to `O=[N+]([O-])c1ccc(OP2(=O)COCCO2)cc1` (centres undefined), for which the inhibition is inactive: 2.61%.
The result for `CCOP(C)(=S)SCC(=O)NC(C)(CC)C(=O)O` (centres undefined) reads inactive: -3.87%.
For `CP(=O)(Nc1ccc(SC(F)(F)F)cc1)Oc1ccc(F)cc1` (centres undefined) the value was inactive: 6.81%; for `O=[N+]([O-])c1cc([N+](=O)[O-])c(C(F)(F)F)c([N+](=O)[O-])c1O`, inactive: -3.41%; for `Cc1ccccc1NP(C)(=O)Nc1ccccc1C`, inactive: -4.09%.
For `CP(=O)(Nc1ccc2c(c1)OCCO2)Oc1ccccc1` (centres undefined) the value was inactive: -8.28%; for `CC(C)c1ccc(OP(C)(=O)Nc2ccc(SC(F)(F)F)cc2)cc1` (centres undefined), inactive: -11.7%; for `CP(=O)(Nc1ccccc1F)Oc1ccccc1` (centres undefined), inactive: 10.9%.
On to `O=[N+]([O-])c1cc([N+](=O)[O-])c(Nc2ccc(Cl)cc2)c([N+](=O)[O-])c1`, for which the inhibition was inactive: 5.68%.
For the molecule `COc1ccc2c(c1O)-c1c(O)c(OC)cc3c1[C@H](C2)[N+](C)(C)CC3.O=[N+]([O-])c1cc([N+](=O)[O-])c([O-])c([N+](=O)[O-])c1[O-]`, the inhibition was inactive: 5.16%.
The result for `O=C(OCCN1CCN(CCOCc2ccccc2)CC1)C(O)(c1ccccc1)c1ccccc1` reads inactive: -0.87%; that for `O=C(OC1CN2CCC1CC2)c1ccc([N+](=O)[O-])cc1` (centres undefined), inactive: -11.8%.
For `COc1ccc(OP(C)(=O)Nc2ccc(SC(F)(F)F)cc2)cc1` (centres undefined) the value was inactive: 1.12%; for `CCOC(=O)c1ccc(NP(C)(=O)Oc2ccc(F)cc2)cc1` (centres undefined), inactive: 0.17%; for `CCN(CC)CCCNc1ccccc1[N+](=O)[O-].O=[N+]([O-])c1cc([N+](=O)[O-])c(O)c([N+](=O)[O-])c1`, inactive: -4.36%.
For `CCCCCOc1ccc(NP(C)(=O)Oc2ccc(Cl)cc2Cl)cc1` (centres undefined) the value was inactive: -1.66%.
`O=[N+]([O-])c1cc([N+](=O)[O-])c(OC2CCCCC2O)c([N+](=O)[O-])c1` (centres undefined): the inhibition is inactive: -1.32%.
`CP(=O)(Nc1ccccc1)Oc1ccc(F)cc1` (centres undefined): the inhibition is inactive: -12.6%.
The result for `CCN(CC)CCCOC(=O)C(O)(c1ccccc1)C1CCCCC1` (centres undefined) reads inactive: -6.34%; that for `Cc1c([N+](=O)[O-])cc([N+](=O)[O-])c(Br)c1[N+](=O)[O-]`, inactive: -15.3%.
For `COc1ccc(OP(C)(=O)Nc2ccccc2Br)cc1` (centres undefined) the value was inactive: -0.6%.
For `COc1ccccc1OP(C)(=O)Nc1ccc(C)c(C)c1` (centres undefined) the value was inactive: 0.69%.
Take `O=C1C(O)=C([N+](=O)[O-])C(=O)C(O)=C1[N+](=O)[O-]`: the inhibition is inactive: 4.36%.
The result for `Cc1cc(C)cc(OP(C)(=O)Nc2cccc(C(F)(F)F)c2)c1` (centres undefined) reads inactive: -1.4%; that for `CP(=O)(OCCOc1ccccc1)OCCOc1ccccc1`, inactive: -1.04%; that for `CCCCCCCCCCCCCCCC1C[N+](C)(C)CCOP(C)(=O)O1` (centres undefined), inactive: 2.17%.
Turning to `CP(=O)(Nc1ccc(Cl)cc1Cl)Oc1ccccc1` (centres undefined), the inhibition is inactive: -3.23%.
The result for `CN(C)CCOC(=O)C(O)(c1ccccc1)C1CCCC1` (centres undefined) reads inactive: -13%.
For `COc1ccc(OP(C)(=O)Nc2ccccn2)cc1` (centres undefined) the value was inactive: 2.49%; for `COc1ccccc1OP(C)(=O)Nc1ccc(Br)cc1` (centres undefined), inactive: -11.4%; for `CCc1ccc(OP(C)(=O)O)cc1`, inactive: -0.45%.
For `CP(=O)(Nc1ccccn1)Oc1ccccc1` (centres undefined) the value was inactive: 4.95%; for `COc1ccccc1OP(C)(=O)Nc1ccc(C)cc1C` (centres undefined), inactive: -14.4%; for `O=[N+]([O-])c1cc([N+](=O)[O-])c(Nc2ccccn2)c([N+](=O)[O-])c1`, inactive: 2.77%.
Turning to `Cc1c(NP(C)(=O)Oc2ccc(C(C)C)cc2)c(=O)n(-c2ccccc2)n1C` (centres undefined), the inhibition was inactive: 3.9%.
The result for `CP(=O)(Oc1ccccc1)N1CCOC1=O` (centres undefined) reads inactive: 12.5%.
For `CCc1ccc(OP(C)(=O)Nc2cccnc2)cc1` (centres undefined) the value was inactive: 5.83%; for `COc1ccccc1OP(C)(=O)Nc1c(C)n(C)n(-c2ccccc2)c1=O` (centres undefined), inactive: 5.16%; for `O=C(OCCCN1CCCC1)C(O)(c1ccccc1)C1CCCCC1` (centres undefined), inactive: 7.84%.
As for `CCN(CC)CC(O)COC(=O)C(O)(c1ccccc1)C1CCCCC1` (centres undefined), the inhibition was inactive: 5.51%.
The result for `COc1ccc(OP(C)(=O)Nc2ccc(Br)cc2)cc1` (centres undefined) reads inactive: -8.67%; that for `CN(C)C(=O)c1c([N+](=O)[O-])cc([N+](=O)[O-])cc1[N+](=O)[O-]`, inactive: 5.96%.
For the molecule `CP(=O)(Nc1ccc(Cl)cc1)Oc1ccc(F)cc1` (centres undefined), the inhibition was inactive: -13.4%.
For `CC(C)(C)c1ccc(OP(C)(=O)O)cc1` the value was inactive: 8.14%; for `COc1ccccc1OP(C)(=O)Nc1ccccc1Br` (centres undefined), inactive: -2.27%; for `CP(=O)(OC12CC3CC(CC(C3)C1)C2)OC12CC3CC(CC(C3)C1)C2`, inactive: 0.44%.
For `CCOC(=O)c1ccc(NP(C)(=O)Oc2ccc(Cl)cc2)cc1` (centres undefined) the value was inactive: 1.25%.
